Results of unrelated studies side by side (data: NIAID ChemDB).

Shared fields: tests on isolated targets; species: HIV-1; target: Reverse transcriptase; measure: Ki

An empty or dashed field is not shown. Rows are shuffled and stem from different studies.

{"compound": "Cc1ccc2c(c1)n(CCNC(=S)Nc1ccc(Br)cn1)c(=O)c1cccn12", "mutations": "RT-Y181I", "method": "nucleotide incorporation", "value": "0.7 µM"}
{"compound": "O=C1CCN(CCOc2ccc(Cl)cc2C(=O)c2cc(Cl)cc(Cl)c2)C(=O)N1", "mutations": "K103N + Y181C", "setting": "pseudotyped", "method": "RT activity", "value": "5.8 µM"}
{"compound": "CC(C)(C)OC(=O)Cn1cnc2c(Oc3ccccc3[N+](=O)[O-])nc(NC(=O)OCc3ccccc3)nc21", "method": "nucleotide incorporation / radiometric", "strain or isolate": "WT", "value": "3.7 µM"}
{"compound": "O=c1c2cccn2c2ccccc2n1CCNC(=S)Nc1ccc(Cl)cn1", "mutations": "RT-K103N", "method": "nucleotide incorporation", "value": "3.3 µM"}
{"compound": "Nc1ccn([C@H]2CC[C@@H](COP(=O)(O)OP(=O)(O)OP(=O)(O)O)O2)c(=O)n1", "mutations": "RT-WT", "method": "RT activity", "value": "0.2 µM"}
{"compound": "Cc1cc2c(cc1C)n1cccc1c(=O)n2CCNC(=S)Nc1ccc(Br)cn1", "mutations": "RT-K103N", "method": "nucleotide incorporation", "value": "0.2 µM"}
{"compound": "Nc1ncnc2c1ncn2[C@@H]1O[C@H](COP(=O)(O)OP(=O)(O)OP(=O)(O)O)C[C@@H]1F", "mutations": "RT-T215Y", "method": "nucleotide incorporation / radiometric", "value": "3.7 µM"}
{"compound": "O=c1c2cccn2ccn1CCNC(=S)Nc1ccc(Br)cn1", "mutations": "RT-L100I", "method": "nucleotide incorporation", "value": "0.061 µM"}
{"compound": "Cc1cc(C)cc(C(=O)c2cc(Cl)ccc2OCCN2C(=O)NC(=O)C(C)C2C)c1", "mutations": "K103N", "setting": "pseudotyped", "method": "RT activity", "value": "4.7 µM"}
{"compound": "Nc1ncnc2c1ncn2CCOCP(=O)(O)OP(=O)(O)OP(=O)(O)O", "mutations": "RT-K65R", "method": "nucleotide incorporation / radiometric", "value": "1.7 µM"}
{"compound": "O=C(O)Cn1cnc2c(Oc3ccccc3[N+](=O)[O-])nc(NC(=O)OCc3ccccc3)nc21", "method": "nucleotide incorporation / radiometric", "strain or isolate": "WT", "value": "3 µM"}
{"compound": "Nc1nc(=O)n([C@@H]2CC[C@H](COP(=O)(O)OP(=O)(O)OP(=O)(O)O)O2)cc1F", "mutations": "RT-Q151M", "method": "nucleotide incorporation / radiometric", "value": "3.3 µM"}
{"compound": "COc1ccc(/C=C/NC(=O)Nc2ccc(Cl)cn2)cc1OC", "mutations": "RT-V106A", "method": "nucleotide incorporation", "value": "20 µM"}
{"compound": "Cc1cn([C@H]2C=C[C@@H](COP(=O)(O)OP(=O)(O)OP(=O)(O)O)O2)c(=O)[nH]c1=O", "mutations": "RT-A62V V75I F77L F116Y Q151M", "method": "nucleotide incorporation / radiometric", "value": "2.8 µM"}
{"compound": "CC(C)=CCN1Cc2cccc3[nH]c(=S)n(c23)C[C@@H]1C", "value": "0.87 µM"}

Repeating the final 2 entries:

compound	mutations	setting	method	strain or isolate	value
Cc1cn([C@H]2C=C[C@@H](COP(=O)(O)OP(=O)(O)OP(=O)(O)O)O2)c(=O)[nH]c1=O	RT-A62V V75I F77L F116Y Q151M		nucleotide incorporation / radiometric		2.8 µM
CC(C)=CCN1Cc2cccc3[nH]c(=S)n(c23)C[C@@H]1C					0.87 µM